Experimental data from article PMC7402102.

Experiments:
[1] = tested on: CC(=O)SCCNC(=O)CCNC(=O)[C@H](O)C(C)(C)COP(=O)(O)OP(=O)(O)OC[C@H]1O[C@@H](n2cnc3c(N)ncnc32)[C@H](O)[C@@H]1OP(=O)(O)O; test: purified protein; settings: 20 mM succinate, pH 7.0, 30 °C, 2 mM MgCl2, coupled to SCS; pH 7.0; 30.0 °C
[2] = tested on: CCC(=O)SCCNC(=O)CCNC(=O)[C@H](O)C(C)(C)COP(=O)(O)OP(=O)(O)OC[C@H]1O[C@@H](n2cnc3c(N)ncnc32)[C@H](O)[C@@H]1OP(=O)(O)O; test: purified protein; settings: succinate co-substrate, coupled to SCS; fit with substrate inhibition

Question: “TbASCT (Trypanosoma brucei brucei TREU927; S419N)” was tested. Which Km [1] did it give?
Answer: 46 ± 7 µM

Question: What about the kcat [1] of the same substance?
Answer: 104 s⁻¹

Question: And the Km [2]?
Answer: 18 ± 2 µM

Question: What about the kcat [2] of the same substance?
Answer: 42.9 ± 2.38 s⁻¹
